Measured values reported in patent US5438118A (SmithKline Beechman Corp., priority 1993, dated 1995).

Assay: general procedure: solution-phase peptide synthesis; BOP/HOBt/NEt3; DCC/HOBt; symmetrical anhydride (Boc-Ala)2O from DCC
Conditions: late stage modification step, HPLC (PRP-1)

Substance: 2-[3-benzyl-5-(1-alanylamino-ethyl)-2,3,6,7-tetrahydro-1H-azepinyl]-1-oxo- propyl-valinyl-valine methyl ester
- final HPLC purity: >90%
